Results of unrelated studies side by side (data: NIAID ChemDB).

Shared fields: growth or infection tests; species: Influenza A virus; read-out: EC50

An empty or dashed field is not shown. a–b is a range or a potency band. ECn is the concentration giving n% inhibition of infection, replication or growth. Lines come from different laboratories, so protocols vary.

SMILES	strain or isolate	cell line	read by	value
CC(=O)N[C@H]1[C@H]([C@H](O)[C@H](O)CO)OC(C(=O)O)=C[C@@H]1N=C(N)N	Influenza A/Sydney/05/97 (H3N2)	MDCK	neutral red / visual reading	0.033 µM
Nc1nc(Cl)cc(NCC2(CO)CCC(O)C2)n1	H1N1 A/PR/8/34	MDCK	plaque count	>110 µM
CSc1nc(Cl)c(C=O)c(N2CC[N+]3(CC2)CC[N+]2(CCN(c4nc(SC)nc(Cl)c4C=O)CC2)CC3)n1		MDCK	cytopathic effect	>70 µg/mL
CCC(CC)[C@H](NC(C)=O)[C@@H]1[C@H](O)[C@@H](C(=O)O)C[C@H]1N=C(N)N	H3N2 A/X-31	MDCK		0.01 µM
Nc1ccnc(N)n1	H1N1 A/PR/8/34	MDCK	plaque count	>910 µM
C/C=C\[C@@H]1C[C@H](C(=O)O)N[C@H]1[C@@H](NC(C)=O)[C@](C)(CCC)OC	Influenza A H3N2 isolate C34C	MDCK	plaque count	≤0.03 µg/mL
Cc1cc(NCC2(CO)CCC2)nc(N)n1	H1N1 A/PR/8/34	MDCK	plaque count	>140 µM
CC1(C)Oc2cc(O)c(C(=O)/C=C/c3ccccc3)c(O)c2CC1O	Panama			100 µg/mL
O=C(CCBr)N1CC[N+]2(CC1)CC[N+]1(CCN(C(=O)CCBr)CC1)CC2		MDCK	cytopathic effect	>70 µg/mL
CCC(CC)[C@H](NC(C)=O)[C@@H]1C[C@@H](C(=O)O)C[C@H]1N=C(N)N	Influenza A/Beijing/32/92 (H3N2)	MDCK		0.14 µM
CC(N)C12CC3CC(CC(C3)C1)C2	H1N1 10 French isolates	MDCK	ELISA	0.051 µg/mL
COc1ncc2ncn([C@@H]3O[C@H](CO)[C@@H](O)[C@H]3F)c2n1	Recombinant A/X31	CEF	virus yield	1.2 µM
C1C[N+]2(CCN1)CC[N+]1(CCNCC1)CC2		MDCK	cytopathic effect	>70 µg/mL
Nc1nc2c(=O)[nH]cnc2n1[C@@H]1O[C@H](CO)[C@@H](O)[C@H]1F	Recombinant A/X31	CEF	virus yield	>20 µM
Nc1nc(Cl)cc(NCC2(CO)CC(c3ccccc3)C2)n1	H1N1 A/PR/8/34	MDCK	plaque count	3.5–6 µM
CC(=O)N[C@H]1[C@H]([C@H](O)[C@H](O)CO)OC(C(=O)O)=C[C@@H]1N=C(N)N	Influenza A/Victoria/3/75 (H3N2)	MDCK		0.41 µM
Nc1nc2c(nc(N)n2[C@@H]2O[C@H](CO)[C@@H](O)[C@H]2F)c(=O)[nH]1	A/Sweden	MDCK	plaque count	17 µM
C[C@H]1CC[C@H]2C(C)(C)C(=O)CC[C@]23Oc2c(c(O)cc4c2C(=O)NC4=O)C[C@]13C	H1N1 A/WSN/33	MDBK		0.006 µM
Nc1ccn([C@@H]2O[C@H](CO)[C@@H](O)[C@H]2F)c(=O)n1	Recombinant A/X31	CEF	virus yield	2.5 µM
CCC	Shanghai/11/87 (H3)	MDCK		>500 µM
Nc1ncc(Br)c(NCC2(CO)CC(CCc3ccccc3)C2)n1	H1N1 A/PR/8/34	MDCK	plaque count	0.026–0.2 µM
CC(=O)O[C@H]1CC[C@@]23Oc4c(c(O)cc5c4CNC5=O)C[C@]2(C)[C@@H](C)CC[C@H]3C1(C)C	H1N1 A/WSN/33	MDBK		0.23 µM
NN1CC[N+]2(CC1)CC[N+]1(CCN(N)CC1)CC2		MDCK	cytopathic effect	>70 µg/mL
CC(=O)OC1CC[C@@]23Oc4c(c(O)cc5c4C(=O)NC5=O)C[C@]2(C)[C@@H](C)CC[C@H]3C1(C)C	H1N1 A/WSN/33	MDBK		0.45 µM
CCCOc1nc2c(nc(N)n2[C@@H]2O[C@H](CO)[C@@H](O)[C@H]2F)c(=O)[nH]1	Recombinant A/X31	CEF	virus yield	1.3 µM
C/C(=C\CCC(C)[C@H]1CC[C@@]2(C)C3=CCC4C(C)(C)[C@@H](O)CC[C@]4(C)C3=CC[C@]12C)CO		MDCK		>220 µM
CC(=O)Oc1cc2c(c3c1C[C@]1(C)[C@@H](C)CC[C@H]4C(C)(C)[C@@H](OC(C)=O)CC[C@]41O3)CNC2=O	H1N1 A/WSN/33	MDBK		1.7 µM
Nc1nc2c(=O)[nH]c(Cl)nc2n1[C@@H]1O[C@H](CO)[C@@H](O)[C@H]1F	A/Sweden	MDCK	plaque count	16 µM
Cc1nc(N2CC[N+]3(CC2)CC[N+]2(CCN(c4nc(C)[nH]c(=O)c4[N+](=O)[O-])CC2)CC3)c([N+](=O)[O-])c(=O)[nH]1		MDCK	cytopathic effect	>70 µg/mL

For reference, 2 entries again:

| SMILES | strain or isolate | cell line | read by | value |
|---|---|---|---|---|
| O=C(CCBr)N1CC[N+]2(CC1)CC[N+]1(CCN(C(=O)CCBr)CC1)CC2 |  | MDCK | cytopathic effect | >70 µg/mL |
| Cc1nc(N2CC[N+]3(CC2)CC[N+]2(CCN(c4nc(C)[nH]c(=O)c4[N+](=O)[O-])CC2)CC3)c([N+](=O)[O-])c(=O)[nH]1 |  | MDCK | cytopathic effect | >70 µg/mL |